Test results as given in PubChem BioAssay AID1224858 (National Center for Advancing Translational Sciences (NCATS), 2016).
Only a part is listed here, and it is no random draw. Records with an inconclusive call do not appear. A call without a number means that no potency is given here. Activity calls are given as the source filed them. Calls follow the shape of the dose curve; as a rule, active = well fitted inhibition curve with a large enough effect; inconclusive = small, poorly fitted or top-dose-only effect; inactive = no such curve, though single readings can be large or run the other way.

Test: Confirmation assay for measurement of the activity of small molecule inhibitors on Zika virus induced Caspase-3 activity in human astrocytes
Details: ZIKV-induced caspase-3/7 luminescence, 6 h; series mostly up to 46.1 µM
Excerpt: National Center for Advancing Translational Sciences [NCATS] Johns Hopkins University School of Medicine Florida State University Assay Overview: Increase in the Caspase-3 activity indicates an activation of apoptosis cell death pathway caused by Zika virus infection in certain types of neuronal cells including human neural progenitor cells (hNPCs), astrocytes, and astrocytoma cell line (SNB-19). This cell-based caspase-3 activity assay measures the increased caspase-3 activity in the human astrocytes after a 6-hour Zika virus infection with a luminescence readout. A decrease in the luminescence signal in this assay by small molecule treatment indicates an inhibitory effect of that small molecule on the Zika virus induced caspase-3 activity that may correlate with its effect on reduction of Zika virus caused cell death.
Assay Protocol Summary: The medium for astrocytes contains AM basal medium (ScienCell, Cat.# 1801), AGS (ScienCell, Cat.# 1801), 10% FBS, and 1% Pen/Strep. A Caspase-Glo 3/7 assay kit (catalog number G8092; Promega, Madison, WI) was used to detect caspase-3 activity induced by Zika virus infection in human cells. […] The luminescence intensity of the assay plates was measured using a ViewLux plate reader (PerkinElmer). […] The percentage inhibitions of the increased Caspase-3 activity by small molecule inhibitors were then calculated.

Row | Compound | Potency
1 | CCOP(=O)(CC)Oc1ccc([N+](=O)[O-])cc1 (configuration not stated) | inactive
2 | C/C1=C2N=C(/C=C3N=C(/C(C)=C4\[N-][C@@](C)([C@@H]5N=C1[C@](C)(CCC(=O)NC[C@@H](C)OP(=O)([O-])O[C@H]1[C@@H](O)[C@@H](n6cnc7cc(C)c(C)cc76)O[C@@H]1CO)[C@H]5CC(N)=O)[C@@](C)(CC(N)=O)[C@@H]4CCC(N)=O)[C@@](C)(CC(N)=O)[C@@H]\3CCC(N)=O)C(C)(C)[C@@H]/2CCC(N)=O.[C-]#N.[Co+3] | active: 8.69 µM
